Assay results taken from PubChem BioAssay AID720542 (National Center for Advancing Translational Sciences (NCATS), 2013).
The entries are a selection whose mix differs from that of the whole data set. Active and inactive are the calls of the source. Calls follow the shape of the dose curve; as a rule, active = well fitted inhibition curve with a large enough effect; inconclusive = small, poorly fitted or top-dose-only effect; inactive = no such curve, though single readings can be large or run the other way.

Each molecule was assayed on Plasmodium falciparum AMA1 (3D7) - RON2 peptide interaction (assay: qHTS for Inhibitors of AMA1-RON; Towards Development of Antimalarial Drug Lead: Primary Screen). Conditions: AlphaScreen AMA1-biotinylated RON2 peptide binding; at 58.2 µM (top of the series).
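Also: 0% = vehicle wells and -100% = peptide control; nearly all actives have a fitted effect of over 45% in size.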

Structure (SMILES) | activity change, negative = inhibition
CN(C)CCOC(=O)C(O)(c1ccccc1)C1CCCC1 (configuration not stated) | inactive: 2.29%
O=C(OC1CN2CCC1CC2)C12CC3CC(CC(C3)C1)C2 (configuration not stated) | inactive: 4.91%
